Assay results published in article PMC8445491.
The exact form of at least one protein or probe is not confirmed.

Target: MtrA~P phosphorylated via wild-type MtrB (UniProt P9WGM7)
Test: EMSA
Details: recombinant protein; protein details: 6xHis (pProEx-HT); label: 32P 5' end label; probe letters rebuilt from the primers and the genome

“TTGCGCCCTTTCACCTCACGATGAGTTCGATCCCGTGGCTAGCGCCCCGCTAGCGTGGGGACTGCCAACGACGAATGCCCATGACGCGTGACCCGCCACGACGGCCGCAACAGCAGTCGAACAACAACCGTAGAGCTTCTCACGTCAACTTGAAAGTTCATCATTGACCTCTGACCCACCGCGACGAGCCAGTTATGCGGGTGGTATCCAGCGAACGATCCCCAGCGCTGTCTTTCCAAGAACAAACGACGAAGAAATCTCGGTAACAGTATTAGAGGGTGTGCAGTTTGGGGACAGTCTGGTCTTGGTGCAGGTCGACGTCGGTCGGAGTTGTGGATGACGGTGGCGATGACTGTGGGGTGTGTGTTGGGTCGGTGGGGATGAGGCGTGGGTTGTGAACGGAACCGCCGGGACTGTATGAGTCTGTGCGCGGTTTGTGCACAGCGACACTCACAGCCAATCTCTGTGACTGGTGTGACCTGGGAGAGAGAAGTTTTTTTAAGAACGTTGTCGGAAGAACACGCCGTGCTAGCGCTTGGAGCGCTGACGGATG (double strand) [oriC 526 bp]”: binds.
